Measured values taken from publication PMC4270374.

system: O=c1ccn([C@@H]2O[C@H](COP(=O)(O)OP(=O)(O)O[C@H]3O[C@@H]([C@H](O)CO)[C@H](O)[C@H]3O)[C@@H](O)[C@H]2O)c(=O)[nH]1; assay: purified protein; conditions: 25 mM HEPES, 125 mM NaCl, 20 mM dithionite, pH 7.5, 37 °C

Q: Which Km does the source give for “AfUGM K344A/K345A (background of all active site variants) (Aspergillus fumigatus; K344A/K345A/N207A)” here?
A: 166 ± 73 µM

Q: And the kcat?
A: 0.13 s⁻¹

Q: What about the kcat/Km of the same substance?
A: 800 M⁻¹ s⁻¹

Q: “AfUGM K344A/K345A (background of all active site variants) (Aspergillus fumigatus; K344A/K345A/Q107A)” was tested. Which Km did it give?
A: 2153 ± 570 µM

Q: And the kcat?
A: 4.7 s⁻¹

Q: What about the kcat/Km of the same substance?
A: 2000 M⁻¹ s⁻¹

Q: Which Km does the source give for “AfUGM K344A/K345A (background of all active site variants) (Aspergillus fumigatus; K344A/K345A/Y104A)” here?
A: 57 ± 17.5 µM

Q: And the kcat?
A: 0.17 s⁻¹

Q: What about the kcat/Km of the same substance?
A: 3000 M⁻¹ s⁻¹

Q: With “AfUGM K344A/K345A (background of all active site variants) (Aspergillus fumigatus; K344A/K345A/Y317A)” as the substance, how does the Km read?
A: 380 ± 129 µM

Q: And the kcat?
A: 0.28 s⁻¹

Q: What about the kcat/Km of the same substance?
A: 700 M⁻¹ s⁻¹

Q: Which results are given for “TcUGM (Trypanosoma cruzi strain CL Brener; Q103A)”?
A: Km: 478 ± 172 µM; kcat: 0.14 s⁻¹; kcat/Km: 300 M⁻¹ s⁻¹

Q: “TcUGM (Trypanosoma cruzi strain CL Brener; Y100A)” was tested. Which Km did it give?
A: 32 ± 12 µM

Q: And the kcat?
A: 0.03 s⁻¹

Q: And the kcat/Km?
A: 800 M⁻¹ s⁻¹

Q: What does the source list for “TcUGM (Trypanosoma cruzi strain CL Brener; Y317F)”?
A: Km: 334 ± 38 µM; kcat: 0.3 s⁻¹; kcat/Km: 860 M⁻¹ s⁻¹
